A mixed list of measured activities; the numbers were collected in NIAID ChemDB.

Shared fields: whole-cell or culture tests; species: HIV-1

Blank or dashed fields: not listed here. ECn: concentration that inhibits the pathogen or its effect by n%. Conditions beyond the fields shown may differ between rows. Two numbers with a dash give a range or band.

compound	cells	mutations	method	measure	strain	value
COCC1=C(C(=O)Nc2ccc(Cl)c(C(=O)OC(C)C)c2)SCCO1	CEM	RT-L100I	syncytia	EC50	TIBO-resistant (RT L100I)	>10 µg/mL
C=CCOC(=O)N[C@@H](Cc1ccccc1)[C@H](O)CN(CC(C)C)S(=O)(=O)c1ccc(Cl)c(Cl)c1	CEM		p24	EC50	IIIB	<1.001 µM
CC1=C(C(=O)Nc2cccc(C(=O)OC(C)C)c2)SCCO1	CEM		syncytia	EC50	IIIB	4 µg/mL
CC(C)c1c(C(=O)c2cc(Cl)cc(Cl)c2)n(Cc2ccncc2)c(=O)[nH]c1=O	MT-4		cytopathic effect / MTT	EC50		0.003 µg/mL
Cc1nc2ccccc2nc1COC(=O)c1ccc2ccccc2c1O	PBMC		RT activity	EC50	89BZ167	>100 µM
Cc1ccc(C)n1-c1ccc(C(=O)O)c(O)c1	PBMC + MT-2		p24	EC50	94UG103 X4R5 CLADE A	25.09 µM
CC1=C(C(=O)Nc2ccc(Cl)c(C(=O)OC(C)C)c2)SCCO1	CEM	RT-E138K	syncytia	EC50	TSAO-resistant (RT E138K)	>20 µg/mL
CN1c2ccccc2C2C1C=CC(=O)N2c1ccc(-c2noc(-c3ccco3)n2)cc1	MT-4		cytopathic effect / MTT	EC50	LAI	1–32 µM
COc1ccc(C[C@H](C[C@H](O)[C@H](Cc2ccccc2)NC(=O)OC(C)(C)C)C(=O)N[C@H](C(=O)N[C@@H](Cc2ccccc2)C(=O)N2CCOCC2)C(C)C)cc1OC	MT-2		RT activity	EC90	MN	0.1 µM
Cc1cc(C(=O)c2c(C(C)C)c(=O)[nH]c(=O)n2Cc2ccncc2)cc([N+](=O)[O-])c1	MT-4		cytopathic effect / MTT	EC50		0.0096 µg/mL
CC1=C(C(=O)Nc2ccc(Cl)c(C(=O)OCC3CCC3)c2)SCCO1	CEM	RT-Y181C	syncytia	EC50	PYR-resistant (RT Y181C)	0.4 µg/mL
COCCNC(=O)[C@@H](NC(=O)[C@H](Cc1ccccc1OC)C[C@H](O)[C@H](Cc1ccccc1)NC(=O)OC(C)(C)C)C(C)C	MT-2		RT activity	EC90	MN	1 µM
CC(C)CN(C[C@@H](O)[C@H](Cc1ccccc1)NC(=O)O[C@H]1CCOC1)S(=O)(=O)c1ccc2nonc2c1	CEM		p24	EC50	IIIB	<0.101 µM
Cc1cc(F)cc(C(=O)c2c(C(C)C)c(=O)[nH]c(=O)n2Cc2ccncc2)c1	MT-4		cytopathic effect / MTT	EC50		0.0034 µg/mL
Cc1cc(C)c(-n2nnnc2OCC(=O)Nc2ccccc2[N+](=O)[O-])c(C)c1	MT-4		p24	EC95		<10 µM
Cc1nc2ccccc2nc1COC(=O)c1ccc(O)cc1O	PBMC		RT activity	EC50	BaL	>100 µM
C=CCN1c2ccccc2C2C1C=C(C#N)C(=O)N2c1ccc([N+](=O)[O-])cc1	MT-4		cytopathic effect / MTT	EC50	LAI	<1 µM
CCc1c(C(=O)c2cc(F)cc(F)c2)n(Cc2cc(C)nc(C)c2)c(=O)[nH]c1=O	MT-4		cytopathic effect / MTT	EC50		0.0151 µg/mL
Cc1cc(C)c(-n2nnnc2SCC(=O)Nc2cccc(Br)n2)c(C)c1	MT-4		p24	EC50		<10 µM
COc1cc(-c2ccc(Nc3ccccc3C(=O)O)c(OC)c2)ccc1Nc1ccccc1C(=O)O	PBMC		RT activity	EC50	BaL	1.37 µM
CCSCC1=C(C(=O)Nc2ccc(Cl)c(C(=O)OC(C)C)c2)SCCO1	CEM	RT-Y181C	syncytia	EC50	PYR-resistant (RT Y181C)	>10 µg/mL
O=C(O)c1ccc(N2C(=O)C=CC3Nc4ccccc4C32)cc1	MT-4		cytopathic effect / MTT	EC50	LAI	1–32 µM
Cc1cc(C)cc(C(=O)c2c(C(C)C)c(=O)[nH]c(=O)n2Cc2ccnc(C)c2)c1	MT-4		cytopathic effect / MTT	EC50		0.0098 µg/mL
O=C(N[C@@H](Cc1ccccc1)[C@H](O)CN(CC1CCCC1)S(=O)(=O)c1ccc(F)cc1)O[C@@H]1CCOC1	CEM		p24	EC50	IIIB	<0.101 µM
COC(=O)c1ccc(C(=O)OCc2nc3ccccc3nc2C)cc1	PBMC		RT activity	EC50	BaL	>100 µM
CN1C(C)(C)CC(n2c(=O)c(O)c3n(c2=O)CCN(Cc2ccc(F)cc2)C3=O)CC1(C)C	MT-4		p24	EC95		<10 µM
CC(C)[C@H](NC(=O)[C@H](Cc1ccc2c(c1)OCO2)C[C@H](O)[C@H](Cc1ccccc1)NC(=O)OC(C)(C)C)C(=O)NCCN(C)C	MT-2		RT activity	EC50	MN	<0.1 µM
CC(=O)Nc1nc(C)c(S(=O)(=O)N(CC(C)C)C[C@@H](O)[C@H](Cc2ccccc2)NC(=O)[C@H](CC(N)=O)NC(=O)c2ccc3ccccc3n2)s1	CEM		p24	EC50	IIIB	<0.101 µM
Cc1cn([C@H]2C[C@H](N=[N+]=[N-])[C@@H](CO)O2)c(=O)[nH]c1=O	PBMC		RT activity	EC50	BaL	0.0143 µM
CC(C)c1c(Cc2ccccc2)n(COCc2ccccc2)c(=O)[nH]c1=O	TZM-bl	Y181C	p24 / ELISA	EC50	A17	>10 µM
CN1CCN(C(=O)c2ccc3c(=O)c4ccccc4[nH]c3c2)CC1	CEM		syncytia	EC50	IIIB	0.007 µg/mL
COc1cccc(OC)c1C(=O)OCc1nc2ccccc2nc1C	PBMC		RT activity	EC90	89BZ167	71.7 µM
CC(C)CN(C[C@@H](O)[C@H](Cc1ccccc1)NC(=O)O[C@H]1CCOC1)S(=O)(=O)c1ccc(-c2ccccn2)s1	CEM		p24	EC50	IIIB	<1.001 µM
O=C1c2c(O)c(=O)n([C@@H]3CCCC[C@H]3O)c(=O)n2CCN1Cc1ccc(F)cc1	MT-4		p24	EC95		<10 µM
CC(C)CN(C[C@@H](O)[C@H](Cc1ccccc1)NC(=O)OC[C@@H]1COC(=O)N1)S(=O)(=O)c1ccc(F)cc1	CEM		p24	EC50	IIIB	<0.101 µM
O=C(CSc1nnnn1-c1ccccc1-c1ccccc1)Nc1ccccc1Cl	MT-4		p24	EC95		<10 µM
COC(=O)c1cc(NC(=O)C2=C(C)OCCS2)ccc1Cl	CEM	RT-Y181C	syncytia	EC50	PYR-resistant (RT Y181C)	>10 µg/mL
Cc1ccccc1-n1nnnc1SCC(=O)Nc1ccccc1Cl	MT-4		p24	EC50		<10 µM
CN1c2ccccc2C2C1C=C(C#N)C(=O)N2c1ccc(F)cc1	MT-4		cytopathic effect / MTT	EC50	LAI	>32 µM
CC1=C(C(=O)Nc2ccc(F)c(C(=O)OC(C)C)c2)SCCO1	CEM	RT-Y181C	syncytia	EC50	PYR-resistant (RT Y181C)	>10 µg/mL
CC(C)[C@H](NC(=O)[C@H](Cc1ccc(O)cc1)C[C@H](O)[C@H](Cc1ccccc1)NC(=O)OC(C)(C)C)C(=O)N[C@@H](Cc1ccccc1)C(=O)N1CCOCC1	MT-2		RT activity	EC50	MN	<0.3 µM
COCCOC(=O)c1cc(NC(=O)C2=C(C)OCCS2)ccc1Cl	CEM	RT-E138K	syncytia	EC50	TSAO-resistant (RT E138K)	>10 µg/mL
O=C1c2c(O)c(=O)n(CC3(N4CCOCC4)CCCC3)c(=O)n2CCN1Cc1ccc(F)cc1	MT-4		p24	EC50		<10 µM
Cc1cc(Cl)cc(C(=O)c2c(C(C)C)c(=O)[nH]c(=O)n2Cc2ccnc(C#N)c2)c1	MT-4		cytopathic effect / MTT	EC50		0.0029 µg/mL
CN1CCN(CCC2CN(Cc3ccc(F)cc3)C(=O)c3c(O)c(=O)n(C4CC4)c(=S)n32)CC1	MT-4		p24	EC50		<10 µM
COc1ccc(-c2nc(-c3ccc(N4C(=O)C=CC5C4c4ccccc4N5C)cc3)no2)cc1	MT-4		cytopathic effect / MTT	EC50	LAI	1–32 µM
COc1ccc(C[C@H](C[C@H](O)[C@H](Cc2ccccc2)NC(=O)OC(C)(C)C)C(=O)N[C@H](C(=O)N[C@@H](Cc2ccccc2)C(=O)N2CCOCC2)C(C)C)c(OC)c1OC	MT-2		RT activity	EC90	MN	1 µM
CC(C)CN(C[C@@H](O)[C@H](Cc1ccccc1)NC(=O)OCc1ccccc1)S(=O)(=O)c1ccc(N)c([N+](=O)[O-])c1	CEM		p24	EC50	IIIB	<1.001 µM
COCCNC(=O)[C@@H](NC(=O)[C@H](Cc1cc(OC)c(OC)c(OC)c1)C[C@H](O)[C@H](Cc1ccccc1)NC(=O)OC(C)(C)C)C(C)C	MT-2		RT activity	EC50	MN	<0.3 µM
COc1cc(C(=O)OCc2nc3ccccc3nc2C)cc(OC)c1OC	PBMC		RT activity	EC90	BaL	>100 µM
CCOCCNC(=O)[C@@H](NC(=O)[C@H](Cc1ccc(OC)c(OC)c1OC)C[C@H](O)[C@H](Cc1ccccc1)NC(=O)OC(C)(C)C)C(C)C	MT-2		RT activity	EC50	MN	<0.03 µM
CN1c2ccccc2C2C1C=C(C#N)C(=O)N2c1cccc([N+](=O)[O-])c1	MT-4		cytopathic effect / MTT	EC50	LAI	<1 µM

A second listing of 5 rows from above:

compound	cells	mutations	method	measure	strain	value
CC(C)[C@H](NC(=O)[C@H](Cc1ccc2c(c1)OCO2)C[C@H](O)[C@H](Cc1ccccc1)NC(=O)OC(C)(C)C)C(=O)NCCN(C)C	MT-2		RT activity	EC50	MN	<0.1 µM
CCc1c(C(=O)c2cc(F)cc(F)c2)n(Cc2cc(C)nc(C)c2)c(=O)[nH]c1=O	MT-4		cytopathic effect / MTT	EC50		0.0151 µg/mL
Cc1cn([C@H]2C[C@H](N=[N+]=[N-])[C@@H](CO)O2)c(=O)[nH]c1=O	PBMC		RT activity	EC50	BaL	0.0143 µM
Cc1cc(C)c(-n2nnnc2SCC(=O)Nc2cccc(Br)n2)c(C)c1	MT-4		p24	EC50		<10 µM
CC1=C(C(=O)Nc2ccc(F)c(C(=O)OC(C)C)c2)SCCO1	CEM	RT-Y181C	syncytia	EC50	PYR-resistant (RT Y181C)	>10 µg/mL